Pooled drug test results. Numbers come from NIAID ChemDB, via PubChem.

All rows: tests in culture; agent: HIV-1; read-out: inhibition

Neighbouring rows are from separate reports.

structure | conditions | mutations | cell line | strain | tested at | method | result
Cc1cn([C@H]2C[C@H](N=[N+]=[N-])[C@@H](CO)O2)c(=O)[nH]c1=O |  |  | MT-4 | BRU | 0.001 µg/mL | p24 | 92.2%
C[C@H](Cn1cnc2c(N)nc(N)nc21)OCP(=O)(O)O |  |  | Macrophage + Monocytes/macrophages | BaL | 0.05 µM | p24 / syncytia | 92%
O=c1[nH]cnc2c1ncn2[C@H]1CC[C@@H](CO)O1 |  | RT-A62V V75I F77L Q151M | PBMC | ddI-resistant (RT K65R/L74V/M184V) | 10 µM | p24 | 0%
COC(=O)[C@@H](C)NC(=O)c1c(C)cc2c(c1O)-c1c(cc3c(c1O)C(=O)c1cc(OC)cc(O)c1C3=O)[C@H](O)[C@H]2O[C@@H]1O[C@H](CO)[C@H](N)[C@H](O)[C@H]1O |  |  | MT-4 | IIIB | 10 µg/mL | antigen | 30%
CC[C@@]1(O)C(=O)OCc2c1cc1n(c2=O)Cc2cc3ccccc3nc2-1 |  |  | H9 | IIIB | 0.2 µM | RT activity | 98%
Nc1ncnc2c1ncn2CC#CCCl |  |  | ATH8 | IIIB | 100 µM | cytopathic effect / trypan blue | 0%
Nc1ccn([C@H]2CC[C@@H](CO)O2)c(=O)n1 |  |  | HT4 + HT4-6C | LAV-1 | 0.0316 µM | syncytia | 72%
COc1cc(O)c2c(c1)C(=O)c1c(cc3c(c1O)-c1c(cc(C)c(C(=O)N[C@H](C)C(=O)O)c1O)[C@H](O[C@@H]1O[C@H](C)[C@H](O)[C@H](O)[C@H]1O)[C@H]3O)C2=O |  |  | MT-4 | IIIB | 10 µg/mL | antigen | <10%
Cc1cn(CC(=O)CCO)c(=O)[nH]c1=O |  |  | ATH8 | IIIB | 10 µM | cytopathic effect / trypan blue | 22%
Cc1nnc2n1-c1ccc(Cl)nc1CN(c1ccccc1)C2 |  |  | MT-4 | BRU | 10 µg/mL | p24 | 0%
Nc1ccn(CC#CCO)c(=O)n1 |  |  | ATH8 | IIIB | 100 µM | cytopathic effect / trypan blue | 8%
c1cc(CN2CCCNCCNCCCNCC2)ccc1CN1CCCNCCNCCCNCC1 |  |  | PBMC | DJ258 CLADE A R5 | 0.5 µM | p24 | 46%
CC(C)=CCOc1c2occc2cc2ccc(=O)oc12 |  |  | Jurkat cells | NL4-3 Recombinant VSV-pseudotyped | 25 µM | luciferase | 69%
COc1cc(O)c2c(c1)C(=O)c1c(cc3c(c1O)-c1c(cc(C)c(C(=O)NC(C)C(=O)O)c1O)[C@H](OC1OC(C)C(N)C(O)C1O)[C@H]3O)C2=O |  |  | MT-4 | IIIB | 10 µg/mL | antigen | <10%
O=C(O)c1cc(SSc2ccc([N+](=O)[O-])c(C(=O)O)c2)ccc1[N+](=O)[O-] |  |  | PBMC |  | 2500 µM | p24 | 77%
O=C1CN(c2ccccc2)Cc2nc(Cl)ccc2N1 |  |  | MT-4 | BRU | 7.5 µg/mL | syncytia | 100%
Nc1c(S(=O)(=O)O)cc2c3c(cc(S(=O)(=O)O)cc13)C(=O)N(NC(=O)N/N=C/c1cccc(C=O)c1)C2=O |  |  | MT-2 |  | 10 µM | syncytia | 0%
Nc1ccn(C/C=C/CCl)c(=O)n1 |  |  | ATH8 | IIIB | 100 µM | cytopathic effect / trypan blue | 0%
COc1ccccc1CN[C@H]1C2CCN(CC2)[C@H]1C(c1ccccc1)c1ccccc1 |  |  | Macrophage + Monocytes/macrophages | BaL | 0.01 µM | RT activity | 1%
Nc1ncnc2c1ncn2CC#CCO |  |  | ATH8 | IIIB | 100 µM | cytopathic effect / trypan blue | 15%
Oc1ccc(/C=C/c2cc(O)cc(O)c2)cc1 | clinical isolate |  | PBMC | EJC-R1 | 5 µM | p24 | 10%
Cc1cn([C@H]2C[C@H](N=[N+]=[N-])[C@@H](CO)O2)c(=O)[nH]c1=O |  |  | MT-4 | IIIB | 0.0312 µM | RT activity | 84.2%
COc1cc(O)c2c(c1)C(=O)c1c(cc3c(c1O)-c1c(cc(C)c(C(=O)N[C@H](C)C(=O)O)c1O)[C@H](O[C@@H]1O[C@H](C)[C@H](N)[C@H](O[C@@H]4OC[C@@H](O)[C@H](O)[C@@H]4O)[C@H]1O)[C@H]3O)C2=O |  |  | MT-4 | IIIB | 3 µg/mL | antigen | 17%
C[C@@H](Cn1cnc2c(N)nc(N)nc21)OCP(=O)(O)O |  |  | Macrophage + Monocytes/macrophages | BaL | 5 µM | p24 / syncytia | 97%
NC(=O)c1ncn([C@@H]2O[C@H](CO)[C@@H](O)[C@H]2O)n1 |  |  | ATH8 |  | 2.5 µM | cytopathic effect | 0%
C/C(=C(/CCO)SS/C(CCO)=C(\C)N(C=O)Cc1cnc(C)nc1N)N(C=O)Cc1cnc(C)nc1N |  |  | U-937/HIV-1(RF) + U-937 | RF | 125 µM | p24 | 0%
Cc1cn([C@H]2C[C@H](N=[N+]=[N-])[C@@H](CCP(=O)(O)Oc3ccccc3)O2)c(=O)[nH]c1=O |  |  | MT-4 | IIIB | 200 µM | cytopathic effect / propidium iodide | 0%
Nc1ncnc2c1ncn2[C@H]1CC[C@@H](CO)O1 |  |  | U-937 | LAV-1 | 0.1 µM | virus yield | 0%
COc1ccc(CN[C@@H](C(=O)N[C@H]2c3ccccc3C[C@H]2O)[C@H](O)[C@H](Cc2ccccc2)NC(=O)[C@@H](NC(=O)OCc2ccccc2)C(C)(C)C)cc1 |  |  | Primary T4 cells + T4 | K31 | 0.31 µM | p24 | 90%
Nc1nc2c(ncn2CC#CCO)c(=O)[nH]1 |  |  | ATH8 | IIIB | 100 µM | cytopathic effect / trypan blue | 0%
Cc1cn([C@H]2C[C@H](N=[N+]=[N-])[C@@H](CO)O2)c(=O)[nH]c1=O |  |  | Primary T lymphocytes |  | 0.02 µM | p24 / ELISA | 90%
CN=C1CN=C(c2ccc[nH]2)c2cc(Cl)ccc2N1 |  |  | HT4 + HT4-6C | LAV-1 | 3.16 µM | syncytia | 95%
CC(=O)N1CCC(C(=O)N(CCCN2CCC(Cc3ccc(C(N)=O)cc3)CC2)c2ccc(C)c(Cl)c2)CC1 |  |  | PBMC | HKW R5 clinical isolate | 0.012 µM | p24 | 90%

Blank or dashed fields: not listed here. Inhibition is in % at the dose shown (toxicity tests: loss of growth or viability).